Results: patent US7731971B2, “Enhanced CTL epitope-containing HIV-1 reverse transcriptase polypeptides” (The United States of America as represented by the …, priority 2003, dated 2010)

Experiments:
HLA-A2.1 = HLA-A2.1 (Homo sapiens, UniProt P04439, D140Y/D185E/D98H/E176V/E277Q/G131W/G231S/I119V/I121R/I166T/I218V/L300P/L318F/N151K/N90K/P208A/P217A/Q86G/Q94H/R138H/R169H/T345S); assay type: binding
immune spleen cells = assay: In vivo immunogenicity: antigen-specific IFN-γ production by bulk cultures from immunized HHD-2 mice; set-up: species or system HHD-2-transgenic mice; details: HHD-2 mice immunized twice with 50 nmol peptide; supernatant after 48 hr (FIG. 5B)
RT-specific CTL lines = assay: RANTES production by peptide-specific CTL lines (ELISA); assay type: cell-based, mouse; details: HHD-2 mice (FIG. 4B)

## VIYQYMADL [Peptide 7A]
HLA-A2.1
  FI0.5: >100 μsM

## VAYQYMDDL [Peptide 2A]
HLA-A2.1
  FI0.5: >100 μsM

## YLYQYMDDV
Immune spleen cells
  antigen-specific IFN-γ production by peptide-immunized bulk culture: much higher IFN-γ production
HLA-A2.1
  HLA-A2 binding ability compared with FMP (FIG. 1B): almost as good as that of FMP
  HLA-A2 binding compared among RT peptides (FIG. 1A): highest affinity of all the peptides
RT-specific CTL lines
  crossreactivity of peptide-specific CTL for wild-type peptide (RANTES production): significantly weaker

## YIYQYMDDL [RT-1Y]
HLA-A2.1
  HLA-A2 binding compared among RT peptides (FIG. 1A): higher affinity than RT-WT

## VIYQYMDDV [Peptide 9V]
HLA-A2.1
  FI0.5: 19.9 μsM
